Measured values taken from article PMC3026800, “Mechanism of Inhibition of Enveloped Virus Membrane Fusion by the Antiviral Drug Arbidol” (PLoS ONE, 2011).

Legend:
[1] = Epifluorescence microscopy of giant unilamellar liposomes with Arb
[2] = Surface plasmon resonance binding to immobilized DMPC liposomes (L1 chip); conditions: Arb pulsed onto DMPC liposome-coated chip (about 5000 RU)

SMILES: CCOC(=O)c1c(CSc2ccccc2)n(C)c2cc(Br)c(O)c(CN(C)C)c12.Cl [Arb, 1H-indole-3-carboxylic acid, 6-bromo-4-[(dimethylamino)-methyl]-5-hydroxy-1-methyl-2-[(phenylthio)methyl]-, ethyl ester, monohydrochloride]
- Effect on GUV bilayer ([1]; 20∶1 Arb-to-lipid ratio): major overall membrane reorganization
- Effect on GUV bilayer ([1]; Arb-to-lipid ratios higher than 1∶20): membrane inhomogeneities and invaginations appeared
- Lysis of GUV ([1]; any condition, even at the highest ratio): no lysis or membrane dislocation
- Effect on GUV bilayer ([1]; up to a 1∶20 Arb-to-lipid ratio): unaffected
- SPR signal of Arb on liposome-coated chip [2]: ~600 RU
